Compound potency records, mixed from different reports. Data source: NIAID ChemDB in PubChem.

Common to all: cytotoxicity tests; cell line: PBMC; measure: CC50

Neighbouring rows are from separate reports. CCn: concentration that lowers growth or viability of the cells by n%. An empty or dashed field is not shown.

SMILES	conditions	method	result
COc1ccc2nc(Cl)c(/C=C/C(=O)c3cc(C)cs3)cc2c1	-	MTS	15.5 µM
CC(C)c1ccccc1NC(=O)NCCc1ccc2c(n1)NCCC2	-	-	0.8 µM
Cc1ccc2nc(Cl)c(/C=C/C(=O)c3ccc4ccccc4c3)cc2c1	-	MTS	>100 µM
COc1ccc(CCNC(=O)OC[C@@H]2C=C[C@H](n3cc(C)c(=O)[nH]c3=O)O2)cc1	-	tetrazolium	>100 µM
NC(=NCCCCCCN=C(N)/N=C(\N)N1CCN(c2cc3c(cc2F)c(=O)c(C(=O)O)cn3C2CC2)CC1)/N=C(\N)N1CCN(c2cc3c(cc2F)c(=O)c(C(=O)O)cn3C2CC2)CC1	-	XTT	100 µg/mL
Cc1ccc(C(=O)OCc2nc3ccccc3nc2C)cc1O	-	MTS	>100 µM
COc1ccc(NC(=O)NCCc2ccc3c(n2)NCCC3)c(OC)c1	-	-	2 µM
Cc1cn([C@H]2C=C[C@@H](COC(=O)NCCc3ccccc3Cl)O2)c(=O)[nH]c1=O	-	tetrazolium	53.2 µM
Nc1nccc2c1ncn2[C@@H]1C[C@H](CO)[C@@H](O)[C@H]1O	-	-	9.98 µM
Cc1ccc(N2C(=O)CCC2(C#N)c2ccc(OCc3ccc(Cl)cc3Cl)cc2)cc1	-	absorbance	9.7 µM
Cc1ccc2nc(Cl)c(/C=C/C(=O)c3cccc4ccccc34)cc2c1	-	MTS	>100 µM
CCCCc1cn(-c2cccc(S(=O)(=O)Nc3cccc4cnccc34)c2)nn1	48 h	fluorescence	86.96 µM
CN(CCc1ccc2c(n1)NCCC2)C(=O)Nc1ccc(C(F)(F)F)cc1	-	-	50 µM
Cc1cc(C)cc(N2C(=O)CCC2(CN)c2c(Cl)cccc2Cl)c1	-	absorbance	>100 µM
OCCNc1nc(-c2cccs2)cc(-c2cc3ccccc3s2)n1	-	-	100 µM
Cc1ccc(N2C(=O)CCC2(C#N)c2ccccc2OCc2ccccc2)cc1	-	absorbance	22.8 µM
Cc1ccc(C[C@@H](C)[C@@H](C)Cc2ccc(C)c(C)c2)cc1C	-	trypan blue	35 µM
Cc1cccc(C(=O)OCc2nc3ccccc3nc2C)c1O	-	MTS	>100 µM
NCCNc1nc(-c2ccoc2)cc(-c2cc3ccccc3s2)n1	-	-	10 µM
COC(=O)c1ccc(C(=O)OCc2nc3ccccc3nc2C)cc1	-	MTS	>100 µM
Cc1ccc(N2C(=O)CCC2(CN)c2ccc(OCc3ccccc3)cc2)cc1	-	absorbance	15.9 µM
Nc1nccc2c1ncn2[C@@H]1C=C(CO)[C@@H](O)[C@H]1O	-	-	9.99 µM
COc1ccc(OC)c(CCNC(=O)OC[C@@H]2C=C[C@H](n3cc(C)c(=O)[nH]c3=O)O2)c1	-	tetrazolium	>100 µM
Cc1ccc(N2C(=O)CCC2(CN)c2ccccc2OCc2ccccc2)cc1	-	absorbance	45.2 µM
OCCN(CCO)CCOc1nc(-c2cccs2)cc(-c2cc3ccccc3s2)n1	-	-	100 µM
COc1ccc2nc(Cl)c(/C=C/C(=O)c3cc(C)oc3C)cc2c1	-	MTS	>100 µM
CCCCOc1nc(N)c2c(n1)N(Cc1cccc(CN3CCCC3)c1)CC(=O)N2	-	luminescence	22 µM
Cc1nc2ccccc2nc1COC(=O)c1ccc(O)cc1	-	MTS	>100 µM
O=C(Nc1nc2ccc(C(F)(F)F)cc2s1)c1cnc(C(F)(F)F)s1	-	flow cytometry	2.509 µM
CN1CCN(CCSc2nnc(-c3cc4ccccc4s3)c3ccccc23)CC1	-	-	100 µM
O=C(NCCc1ccc2c(n1)NCCC2)Nc1cccnc1	-	-	50 µM
CN(C)CCSc1cccc(-c2ccnc(-c3cccc(SCCN(C)C)c3)n2)c1	-	-	100 µM
Nc1ccn([C@@H]2CS[C@H](CO)O2)c(=O)n1	-	luminescence	>1 µM
COc1ccc2nc(Cl)c(/C=C/C(=O)c3cccc4ccccc34)cc2c1	-	MTS	23.2 µM
N#CC1(c2ccc(OCc3ccccc3)cc2)CCC(=O)N1Cc1ccccc1	-	absorbance	5.9 µM
COc1ccc2nc(Cl)c(/C=C/C(=O)c3ccsc3)cc2c1	-	MTS	14 µM
CC(C)c1c(Cc2ccccc2)n(COCc2ccccc2)c(=O)[nH]c1=O	-	XTT	166.6 µM
COc1ccc2nc(Cl)c(/C=C/C(=O)c3ccc(C)o3)cc2c1	-	MTS	4.5 µM
NCC1(c2ccc(OCc3ccccc3)cc2)CCC(=O)N1Cc1ccccc1	-	absorbance	15.7 µM

For reference, 4 entries again:

SMILES,conditions,method,result
Cc1nc2ccccc2nc1COC(=O)c1ccc(O)cc1,-,MTS,>100 µM
COc1ccc(NC(=O)NCCc2ccc3c(n2)NCCC3)c(OC)c1,-,-,2 µM
Cc1ccc(N2C(=O)CCC2(CN)c2ccc(OCc3ccccc3)cc2)cc1,-,absorbance,15.9 µM
COC(=O)c1ccc(C(=O)OCc2nc3ccccc3nc2C)cc1,-,MTS,>100 µM